Anti-infective test results gathered from many reports (values: NIAID ChemDB through PubChem).

Shared fields: cytotoxicity tests; cell line: MT-4; measure: CC50

a–b is a range or a potency band. CCn: concentration that lowers growth or viability of the cells by n%. Blank or dashed fields: not listed here. Rows are shuffled and stem from different studies.

| SMILES | read by | result |
|---|---|---|
| Cc1cc(C#Cc2ccccc2)cc(C)c1Oc1ccnc(NC2CCN(Cc3ccc(S(N)(=O)=O)cc3)CC2)n1 | MTT | 0.766 µM |
| CCOC(=O)c1c[nH]cc1S(=O)(=O)c1cc(Cl)ccc1NCC=C(C)C | MTT | 12 µM |
| COC(=O)[C@H](CCSC)NC(=O)[C@H](CO)NC(=O)COc1ccc2ccccc2c1 | MTT | 49 µg/mL |
| CCc1c(Sc2ccccc2)n(COCCO)c(=O)[nH]c1=O |  | 400 µM |
| COc1cc(O)c2c(=O)c(OC)c(-c3ccc(O)cc3)oc2c1 |  | 51 µg/mL |
| Cc1cn([C@H]2C=C[C@@H](COC(=O)CNC(=O)C(=O)/C=C(\O)c3cc(OCc4ccccc4)cc(OCc4ccccc4)c3)O2)c(=O)[nH]c1=O | MTT | >10 µM |
| Cc1cc(C#Cc2ccccc2)cc(C)c1Oc1ccnc(Nc2ccc(C#N)cc2)n1 | MTT | 12.5 µM |
| O=c1[nH]cnc2c1ncn2[C@H]1CC[C@@H](CO)O1 | MTT | 529 µM |
| Nc1ncnc2c1ncn2[C@@H]1CC(CO)(CO)CO1 |  | >100 µg/mL |
| CC(C)=CCn1cc2c(c1)S(=O)(=O)c1cc(Cl)ccc1NC2=S | MTT | 30 µM |
| C1CNCCNCCCN[C@@H]([C@H]2CNCCCNCCNCCCN2)CNC1 |  | 200 µg/mL |
| Cc1cn([C@H]2C[C@H](N=[N+]=[N-])[C@@H](COC(=O)CCCCC(=O)N[C@H]3CC[C@]4(C)[C@H]5CC=C6[C@@H]7CC(C)(C)CC[C@]7(C(=O)O)CC[C@@]6(C)[C@]5(C)CC[C@H]4C3(C)C)O2)c(=O)[nH]c1=O | MTT | 230.7 µg/mL |
| C1CNCCNCCCN(CCN2CCCNCCNCCCNCC2)CCNC1 |  | 349 µM |
| CCOC(=O)c1c[nH]cc1S(=O)(=O)c1cc(Cl)ccc1N | MTT | 96 µM |
| Nc1ccc(-c2nc3ccccc3c(=O)[nH]2)cc1 | MTT | 238.1 µM |
| COC(=O)CNC(=O)[C@H](C)NC(=O)COc1ccc2ccccc2c1 | MTT | 79 µg/mL |
| CC(C)Nc1cccnc1N1CCN(C(=O)c2cc3cc(NS(C)(=O)=O)ccc3[nH]2)CC1 | MTT | >43.81 µM |
| O=C1C=C2C[C@H](C3=C4C=C[C@@H]5C[C@@]4(OC3=O)[C@H]3CCCN53)[C@@H]3C[C@@]2(O1)[C@H]1CCCN31 | MTT / absorbance | 97.9 µM |
| O=S(=O)(O)OCC1OC2OC3C(COS(=O)(=O)O)OC(OC4C(COS(=O)(=O)O)OC(OC5C(COS(=O)(=O)O)OC(OC6C(COS(=O)(=O)O)OC(OC7C(COS(=O)(=O)O)OC(OC8C(COS(=O)(=O)O)OC(OC1C(OS(=O)(=O)O)C2OS(=O)(=O)O)C(OS(=O)(=O)O)C8OS(=O)(=O)O)C(OS(=O)(=O)O)C7OS(=O)(=O)O)C(OS(=O)(=O)O)C6OS(=O)(=O)O)C(OS(=O)(=O)O)C5OS(=O)(=O)O)C(OS(=O)(=O)O)C4OS(=O)(=O)O)C(OS(=O)(=O)O)C3OS(=O)(=O)O |  | >500 µg/mL |
| CC(C)=CCc1c(-c2ccc(O)cc2O)oc2c3c(cc(O)c2c1=O)OC(C)(C)C=C3 |  | 9.1 µg/mL |
| C1CNCCNCCCN[C@H]([C@@H]2CNCCCNCCNCCCN2)CNC1 |  | 319 µM |
| c1cc(CN2CCCNCCNCCCNCC2)ccc1CN1CCCNCCNCCCNCC1 |  | 5 µg/mL |
| CCc1c(Sc2ccccc2)n(COCc2ccccc2)c(=O)[nH]c1=O |  | 30 µM |
| Nc1ccc(-c2nc3cc(Cl)ccc3c(=O)[nH]2)cc1 | MTT | >170 µM |
| COc1cc2c(c(O)c1CC=C(C)C)C(=O)C(c1ccc(O)cc1O)CO2 |  | 9 µg/mL |
| COC(=O)[C@H](CO[C@H]1O[C@H](C2COC(C)(C)O2)[C@@H]2OC(C)(C)O[C@H]12)NC(=O)[C@H](CCSC)NC(=O)COc1ccc2ccccc2c1 | MTT | 75 µg/mL |
| Cc1c(Sc2ccccc2)n(COCc2ccccc2)c(=O)[nH]c1=O |  | 63 µM |
| COC(=O)[C@H](CCSC)NC(=O)[C@H](C)NC(=O)COc1ccc2ccccc2c1 | MTT | 48 µg/mL |
| O=C(O)C(=O)CC(=O)c1cc(OCc2ccccc2)cc(OCc2ccccc2)c1 | MTT | >10 µM |
| CCOC(=O)CC(=O)N1CCC(NC(=O)c2cc(O)c(O)c(O)c2)CC1 | MTT | 31.3 µM |
| Cc1cccc(C)c1Oc1ccnc(Nc2ccc(C#N)cc2)n1 | MTT | 12.1 µM |
| O=C(NC1CCN(C(=O)c2ccc(F)cc2)CC1)c1cc(O)c(O)c(O)c1 | MTT | 30.8 µM |
| C1CNCCNCCCN[C@H]([C@H]2CNCCCNCCNCCCN2)CNC1 |  | 298 µg/mL |
| CCc1c(Sc2cccc3ccccc23)nc(SCC(=O)c2ccccc2)[nH]c1=O | MTT | 36.74 µM |
| COC(=O)CNC(=O)[C@H](CCSC)NC(=O)COc1ccc2ccccc2c1 | MTT | >100 µg/mL |
| O=c1[nH]c(-c2ccc(O)c(O)c2O)nc2ccccc12 | MTT | 9.2 µM |
| COC(=O)CNC(=O)CNC(=O)COc1ccc2ccccc2c1 | MTT | >100 µg/mL |
| Cc1cn([C@H]2C=C[C@@H](COC(=O)CNC(=O)C(=O)/C=C(\O)c3cccn3Cc3ccc(F)cc3)O2)c(=O)[nH]c1=O | MTT | >10 µM |
| CC(=O)Nc1cccc(C#Cc2cc(C)c(Oc3ccnc(Nc4ccc(C#N)cc4)n3)c(C)c2)c1 | MTT | 0.844 µM |
| CC(C)n1c(/C=C/[C@@H](O)C[C@@H](O)CC(=O)O)c(-c2ccc(F)cc2)c2ccccc21 |  | 0.8–5.6 µg/mL |
| O=c1ccn([C@@H]2CC(CO)(CO)CO2)c(=O)[nH]1 |  | >100 µg/mL |
| Nc1ccn([C@H]2C=C[C@@H](CO)O2)c(=O)n1 |  | 42 µM |
| O=c1[nH]cnc2c1ncn2[C@H]1CC[C@@H](CO)O1 | MTT | >211.7 µM |
| Cc1cn([C@H]2C=C[C@@H](COC(=O)CCNC(=O)C(=O)/C=C(\O)c3cc(OCc4ccccc4)cc(OCc4ccccc4)c3)O2)c(=O)[nH]c1=O | MTT | >10 µM |
| O=C1Nc2ccc(Cl)cc2S(=O)(=O)c2cn(CC=Cc3ccccc3)cc21 | MTT | >200 µM |
| Cc1cn([C@H]2C[C@H](N=[N+]=[N-])[C@@H](COP(=O)(O)O)O2)c(=O)[nH]c1=O |  | >100 µM |
| Cc1ccc(S(=O)(=O)N2CCC(NC(=O)c3cc(O)c(O)c(O)c3)CC2)cc1 | MTT | 66.1 µM |
| O=c1c(O)c(-c2ccc(O)cc2)oc2cc(O)cc(O)c12 |  | 36 µg/mL |
| O=C(CNC(=O)C(=O)/C=C(\O)c1cccn1Cc1ccc(F)cc1)OC[C@@H]1C=C[C@H](n2ccc(=O)[nH]c2=O)O1 | MTT | >10 µM |

A second listing of 5 rows from above:

SMILES | read by | result
C1CNCCNCCCN[C@@H]([C@H]2CNCCCNCCNCCCN2)CNC1 |  | 200 µg/mL
COc1cc2c(c(O)c1CC=C(C)C)C(=O)C(c1ccc(O)cc1O)CO2 |  | 9 µg/mL
Cc1c(Sc2ccccc2)n(COCc2ccccc2)c(=O)[nH]c1=O |  | 63 µM
COC(=O)CNC(=O)[C@H](CCSC)NC(=O)COc1ccc2ccccc2c1 | MTT | >100 µg/mL
O=c1[nH]cnc2c1ncn2[C@H]1CC[C@@H](CO)O1 | MTT | >211.7 µM